Compound potency records, mixed from different reports. Data source: NIAID ChemDB in PubChem.

All rows: target-level tests

An empty or dashed field is not shown.

structure | protein | method | dose | endpoint | agent | mutations | strain or isolate | value
O=C1/C(=C\c2cccc(OC(F)(F)F)c2)SC(=S)N1NS(=O)(=O)c1ccccc1 | NS5B polymerase |  |  | IC50 | Hepatitis C virus |  |  | ≤30 µM
O=C(O)C(F)P(=O)(O)O | DNA polymerase |  |  | IC50 | Epstein-Barr virus |  |  | 14 µM
COc1cc(Cc2cnc(N)nc2N)cc(OC)c1OCCCNc1ccc(S(=O)(=O)c2ccc(N)cc2)cc1 | Dihydrofolate reductase |  |  | IC50 | Candida albicans |  |  | 0.29 µM
CN(Cc1cnc2nc(N)nc(N)c2n1)c1ccc(C(=O)N[C@H](CCCCN)C(=O)O)cc1 | DHFR |  |  | IC50 | Pneumocystis carinii |  |  | >8 µM
O=C1C(=O)c2ccccc2C(O)=C1C1CCC(c2ccc(Cl)cc2)CC1 | Dihydroorotate dehydrogenase |  | 1 µM | inhibition | Pneumocystis carinii |  |  | 0.7%
O=C1/C(=C\c2ccc(Cl)cc2F)SC(=S)N1NS(=O)(=O)c1ccccc1 | NS5B polymerase |  |  | IC50 | Hepatitis C virus |  |  | ≤30 µM
CC[C@H]1C=CCC[C@@]2(C[C@@H]3CC[C@@H]4[C@H](C(=O)OCCCCCCCCCCCCCCCC(=O)N(CCC[NH3+])CCCC[NH3+])[C@]5(CCC[C@@H](C)O5)NC(=[N+]34)N2)O1 | Nef | ELISA | 5 µM | inhibition | HIV-1 |  | NL4-3 | 81%
Cc1cc(SC2=C(O)C[C@@](CCc3ccc(O)cc3)(C(C)C)OC2=O)c(C(C)(C)C)cc1CO | Cytochrome P450 3A4 |  | 100 µM | inhibition |  |  |  | 36%
CC(=O)N[C@@H](CO)[C@@H](O)[C@H](O)[C@H](O)COP(=O)(O)O | Phosphoglucose isomerase |  |  | IC50 | Candida albicans |  |  | 76 µM
O=C/C=C/c1ccccc1 | Chitin synthase 3 |  |  | Ki | Saccharomyces cerevisiae |  |  | 970 µM
CCC(CC)Nc1cc(C(=O)O)ccc1N1C(=O)CCC1(CN)CO | Neuraminidase |  |  | IC50 | Influenza A virus |  | Subtype N2 | 0.52 µM
O=C1C2CC3=COC=CC(O)C3N2C(=O)C2=CC3=COC=CC(O)C3N12 | RNA polymerase |  |  | IC50 | Coxsackie virus |  | TYPE A21 | 0.00009 µg/mL
Cc1cccc(C)c1OCC(=O)N[C@@H](Cc1ccccc1)[C@H](O)CN1CC[C@@H](Sc2ccncc2)C[C@H]1C(=O)NC(C)(C)C | Protease | fluorescence |  | Ki | HIV | PR-L10I L23I M46I I84V |  | 0.000197 µM
O=C(O)C(Br)(Br)P(=O)(O)O | DNA polymerase |  | 100 µM | inhibition | Herpes simplex virus 2 |  |  | 4%
O=C1/C(=C\c2cccnc2)SC(=S)N1NS(=O)(=O)c1ccccc1 | NS5B polymerase |  |  | IC50 | Hepatitis C virus |  |  | ≤30 µM
C=Cc1cn([C@H]2C[C@H](O)[C@@H](CO)O2)c(=O)[nH]c1=O | Thymidine kinase |  |  | Ki | Varicella zoster virus |  |  | 0.41 µM
CC(=O)OC1C=COC=C2C[C@@]34S[C@]5(CC6=COC=CC(OC(C)=O)C6N5C3=O)C(=O)N4C21 | RNA polymerase |  |  | IC50 | Coxsackie virus |  | TYPE A21 | 3.8 µg/mL
O=C1NC(=O)/C(=C\c2ccc(Cl)cc2)S1 | NS5B polymerase |  |  | IC50 | Hepatitis C virus |  |  | >30 µM
N#Cc1ccc(C(=O)Nc2nnc(NCc3ccc4c(c3)OCO4)s2)cc1 | Polymerase |  |  | IC50 | Human cytomegalovirus |  |  | >25 µM
CC[C@H]1C=CCC[C@@]2(C[C@@H]3CC[C@@H]4[C@H](C(=O)OC/C=C/c5ccccc5)[C@]5(CCC[C@@H](C)O5)NC(=[N+]34)N2)O1 | Nef | ELISA |  | IC50 | HIV-1 |  | NL4-3 | <5 µM
O=c1[nH]c(=O)n([C@@H]2O[C@H](CO)[C@@H](O)[C@@H]2F)cc1/C=C/Br | Thymidine kinase |  |  | Ki | Varicella zoster virus |  |  | 2.75 µM
N[C@@H]1CN(c2c(F)cc3c(=O)c(C(=O)O)cn([C@@H]4C[C@@H]4F)c3c2Cl)CC12CC2 | Gyrase (V90A+V94D mutant) |  |  | IC50 | Mycobacterium tuberculosis |  |  | 144 µg/mL
CCc1nc(N)nc(N)c1-c1ccc(N2CCCCC2)cc1 | DHFR |  |  | IC50 | Pneumocystis carinii |  |  | 12 µM
CCc1cn([C@H]2C[C@H](O)[C@@H](CO)O2)c(=O)[nH]c1=O | Thymidine kinase |  |  | Ki | Varicella zoster virus |  |  | 0.47 µM
O=P(O)(O)C(F)(Cl)P(=O)(O)O | DNA polymerase |  |  | IC50 | Herpes simplex virus 2 |  |  | >100 µM
O=c1[nH]c(=O)n([C@@H]2O[C@H](CO)[C@@H](O)[C@@H]2O)cc1/C=C/Cl | Thymidine kinase |  |  | Ki | Varicella zoster virus |  |  | 0.42 µM
O=C(Nc1nnc(NCCCN2CCCC2=O)s1)c1ccc(Br)cc1 | Polymerase |  |  | IC50 | Human cytomegalovirus |  |  | >25 µM
CC(C)[C@H](NC(=O)c1ccc2ccccc2n1)C(=O)N[C@@H](Cc1ccccc1)[C@H](O)CN1CC[C@@H](SCc2cccnc2)C[C@H]1C(=O)NC(C)(C)C | Protease | fluorescence |  | fold resistance | HIV | PR-L23I V32I M46I I47V I54M A71V I84V |  | 6060
O=C(O)C(F)(Br)P(=O)(O)O | DNA polymerase |  | 100 µM | inhibition | Epstein-Barr virus |  |  | 43%
Cc1cnc2nc(N)nc(N)c2n1 | DHFR |  |  | IC50 | Pneumocystis carinii |  |  | >20 µM
CC(=O)OC1C=COC=C2CC34SSC5(CC6=COC=CC(OC(C)=O)C6N5C3=O)C(=O)N4C21 | RNA polymerase |  |  | IC50 | Coxsackie virus |  | TYPE A21 | 0.1 µg/mL
CC(Br)(C(=O)O)P(=O)(O)O | DNA polymerase |  | 100 µM | inhibition | Herpes simplex virus 2 |  |  | 0%
CC(=O)OC1C=COC=C2C[C@@]34SC(=O)S[C@]5(CC6=COC=CC(OC(C)=O)C6N5C3=O)C(=O)N4C21 | RNA polymerase |  |  | IC50 | Coxsackie virus |  | TYPE A21 | 0.5 µg/mL
Cc1cc(C(=O)O)cc(C)c1N(C)Cc1cnc2nc(N)nc(N)c2n1 | DHFR |  |  | IC50 | Pneumocystis carinii |  |  | 0.19 µM
O=c1[nH]c(=O)n([C@@H]2O[C@H](CO)[C@@H](O)[C@@H]2O)cc1C=C(Br)Br | Thymidine kinase |  |  | Ki | Varicella zoster virus |  |  | 4.05 µM
CC[C@H]1C=CCC[C@@]2(C[C@@H]3CC[C@@H]4[C@H](C(=O)OCCCCCCCCCCC(=O)N(CCC[NH3+])C[C@@H](O)CC[NH3+])[C@]5(CCC[C@@H](C)O5)NC(=[N+]34)N2)O1 | Nef | ELISA | 5 µM | inhibition | HIV-1 |  | NL4-3 | 93.9%
O=C(O)C(Cl)(Cl)P(=O)(O)O | DNA polymerase |  | 100 µM | inhibition | Herpes simplex virus 2 |  |  | 0%
CC#Cc1cn([C@H]2C[C@H](O)[C@@H](CO)O2)c(=O)[nH]c1=O | Thymidine kinase |  |  | Ki | Varicella zoster virus |  |  | 2.3 µM
Cc1c(CNc2ccc(C(=O)NC(CC(=O)O)CC(=O)O)cc2)ccc2nc(N)nc(N)c12 | DHFR |  |  | IC50 | Pneumocystis carinii |  |  | 0.00022 µM
Cc1csc2nc([C@H](C)NC(=O)/C=C/c3ccc(N(C)C)cc3)oc(=O)c12 | Protease |  |  | IC50 | Varicella zoster virus |  |  | 0.028 µM
O=C(O)C(Cl)P(=O)(O)O | DNA polymerase |  |  | IC50 | Herpes simplex virus 2 |  |  | 5.4 µM
CCCCCCCC/C=C/CCCCCCCC(=O)Nc1nnc(NC2CCN(C(=O)OCC)CC2)s1 | Polymerase |  |  | IC50 | Human cytomegalovirus |  |  | <25 µM
CCCCCCCCC[C@@H]1C[C@@H]2CCC3=C(C(=O)O[C@H](C)CCCCC[C@@H]4C[C@@H]5CC[C@@H]6C[C@H](C)NC(=[N+]65)N4)[C@@H](C)NC(=[N+]32)N1 | Nef | ELISA |  | IC50 | HIV-1 |  | NL4-3 | <5 µM
CS[C@@]12CC3=COC=CC(OC(C)=O)C3N1C(=O)[C@]1(SC)CC3=COC=CC(OC(C)=O)C3N1C2=O | RNA polymerase |  |  | IC50 | Coxsackie virus |  | TYPE A21 | 1 µg/mL
O=C(Nc1nnc(NCCNc2ccccc2)s1)c1ccc(S(=O)(=O)F)cc1 | Polymerase |  |  | IC50 | Human cytomegalovirus |  |  | >25 µM
CO[P@](=O)(c1cc(C)cc(/C=C/C#N)c1)c1c(C(N)=O)[nH]c2ccc(Cl)c(F)c12 | Reverse transcriptase |  |  | IC50 | HIV | K103N |  | 0.782 µM
O=C1/C(=C\c2ccc([N+](=O)[O-])cc2)SC(=S)N1NS(=O)(=O)c1ccccc1 | NS5B polymerase |  |  | IC50 | Hepatitis C virus |  |  | ≤30 µM
CCC(CC)Nc1cc(C(=O)O)ccc1N1C(=O)CCC1(CO)CO | Neuraminidase |  |  | IC50 | Influenza A virus |  | Subtype N2 | 0.49 µM
Nc1nc(N)c(-c2ccc(Cl)cc2)c(C(F)(F)F)n1 | DHFR |  |  | IC50 | Pneumocystis carinii |  |  | >42 µM

ICn is the concentration giving n% inhibition. Fold resistance has wild type as its base. Neighbouring rows are from separate reports. Inhibition is in % at the dose shown (toxicity tests: loss of growth or viability).